According to PMC4971064:
The exact form of at least one protein or probe is not confirmed.

Tests used:
PhoB (phosphorylated) = PhoB (phosphorylated) (UniProt P23620); test: EMSA; settings: acetylphosphate, Mg2+, 12 mM Tris-HCl pH 7, 23.6 mM NaCl, 0.12 M Mg acetate, 0.24 mM EDTA, 0.24 mM DTT, 1.2% glycerol, 2.3 mM acetylphosphate, 20 ug/ml poly(dI-dC), recombinant protein, protein details: His-tag
[1] = system: PhoB (phosphorylated) + sigma VreI; test: EMSA; settings: VreI added to preformed PhoB-DNA complex II; 12 mM Tris-HCl pH 7, 23.6 mM NaCl, 0.12 M Mg acetate, 0.24 mM EDTA, 0.24 mM DTT, 1.2% glycerol, 2.3 mM acetylphosphate, 20 ug/ml poly(dI-dC); recombinant protein; protein details: His-tag,His-tag; label: 5' fluorescein on strand 1
[2] = label: 5' fluorescein on strand 1

Sequence | binding result (PhoB (phosphorylated); [2]) | binding result (PhoB (phosphorylated); two complexes (I and II), label: 5' 32P) | binding result [1]
ACCGCAGGTACCGTCACACCACAGTCACACAGTGCCATCAGGATGTCCCTCCTGGGTGATGGCCATCTGG (double strand) [PvreA] | binds | – | –
CGCTCCGCTCCATGAACTTTCCATGACAAGTCTTCGGCCCACCCTCCGCCAGGCCGTCTACCAGTAA (double strand) [PpdtA (32P)] | – | binds | –
CGCTCCGCTCCATGAACTTTCCATGACAAGTCTTCGGCCCACCCTCCGCCAGGCCGTCTACCAGTAA (double strand) [PpdtA (fluorescein)] | binds | – | binds
CGGCCGGTCGCATGAAGTTTTCATGACAAAAGTTCGGTGGTGCGGCGGGGTTGCCGTCAAACAGGTGT (double strand) [PphdA] | binds | – | –
